Values from PubChem BioAssay AID504761 (Drosophila RNAi Screening Center, 2011).
In all, the deposit lists about 22,000 reagents; shown is an unselected part of those with a known target gene and a result. Over the whole deposit, 116 (0.52%) got an active call. 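Calls depend on retest data that are not deposited; infection was ranked per plate without normalising between plates; the unit of the infection score is not given.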 The raw values are shown without normalisation. Names joined by + are all predicted targets of the reagent. Reagent sequences are not shown. Not given: the amount of reagent, the time to read-out.

Aim: 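Fly genes whose silencing reduces dengue virus type 2 infection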 (primary screen)
Cells: D.Mel-2 cells from Drosophila
Reagent: long dsRNA against Drosophila genes
Challenge: infection with dengue virus type 2; dose and infection time not stated
Measurement: 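Cells stained for dengue envelope protein and imaged; percent of infected cells per well on duplicate plates, ranked by infection, with stained nuclei counted for cell number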
Direction: infection score: higher = more virus-infected cells; cell count: higher = more cells in the well
Hit rule: 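Low infection ranks in the two replicates (chance level up to 0.065) followed by a retest with a 1.5-fold or larger significant decrease, p below 0.05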
Calls: active = confirmed: knock-down lowers infection; inactive = not picked or not confirmed

| gene | amplicon | infection score, replicate 1 | infection score, replicate 2 | cell count, replicate 1 | cell count, replicate 2 | outcome |
| --- | --- | --- | --- | --- | --- | --- |
| CG33120 | DRSC02073 | 13.8 | 13.6 | 6627 | 5705 | inactive |
| SmD2 (Small ribonucleoprotein particle protein SmD2) | DRSC12536 | 9.56 | 28.9 | 837 | 2027 | inactive |
| SmD2 (Small ribonucleoprotein particle protein SmD2) | DRSC28703 | 2.83 | – | 1025 | 403 | inactive |
| Crz (Corazonin) | DRSC16615 | 5.29 | 2.83 | 5502 | 6651 | inactive |
| CG15059 | DRSC19633 | 13.3 | 15.9 | 5257 | 6005 | inactive |
| CG15059 | DRSC28667 | 13.6 | 0.91 | 4631 | 549 | inactive |
| Dronc (Death regulator Nedd2-like caspase) | DRSC11231 | 11.1 | 10.3 | 7039 | 7241 | inactive |
| Or47b (Odorant receptor 47b) | DRSC07492 | 5.49 | – | 1276 | 405 | inactive |
| CG2871 | DRSC18230 | 8.62 | 9.58 | 6463 | 6861 | inactive |
| CG2871 | DRSC21719 | 31.4 | 15 | 5215 | 5640 | inactive |
| Fas1 (Fasciclin 1) | DRSC16669 | 2.51 | 7.72 | 6420 | 6765 | inactive |
| drk (downstream of receptor kinase) | DRSC07606 | 5.69 | 18.5 | 5996 | 6195 | inactive |
| drk (downstream of receptor kinase) | DRSC27911 | 24.9 | 31.9 | 4700 | 4611 | inactive |
| CG13681 (retired record) | DRSC08906 | 9.94 | 7.91 | 6136 | 6243 | inactive |
| CG13681 (retired record) | DRSC08907 | 6.06 | 5.7 | 6488 | 6636 | inactive |
| CG13681 (retired record) | DRSC10038 | 6.04 | 3.04 | 6123 | 4347 | inactive |
| CG13681 (retired record) | DRSC10039 | 7.3 | 4.92 | 5959 | 5792 | inactive |
| CG13681 (retired record) | DRSC10927 | 1.49 | 7.07 | 6101 | 6122 | inactive |
| CG13681 (retired record) | DRSC10929 | 7.1 | 6.16 | 7083 | 6976 | inactive |
| CG13681 (retired record) | DRSC27924 | 12.2 | 9.56 | 6571 | 6839 | inactive |
| cutlet | DRSC00284 | 1.36 | 2.52 | 6302 | 6305 | inactive |
| cutlet | DRSC29552 | 19.6 | 4.41 | 5940 | 1224 | inactive |
| Ir48a (Ionotropic receptor 48a) | DRSC05301 | 0.84 | 2.15 | 5986 | 5215 | inactive |
| ref(2)P (refractory to sigma P) | DRSC03601 | 12.6 | 4.69 | 4021 | 2005 | inactive |
| Frq1 (Frequenin 1) | DRSC19961 | 5.64 | 15.6 | 6680 | 6872 | inactive |
| Frq1 (Frequenin 1) | DRSC25439 | 4.4 | 2.35 | 6312 | 5951 | inactive |
| GluRIIE (Glutamate receptor IIE) | DRSC13431 | 6.12 | 6.11 | 6063 | 5692 | inactive |
| GluRIIE (Glutamate receptor IIE) | DRSC25745 | 7.53 | 6.97 | 6843 | 6962 | inactive |
| CG6707 | DRSC10697 | 5.01 | 6.89 | 6223 | 6371 | inactive |
| CG15578 | DRSC18066 | 8.65 | 8.52 | 6355 | 2841 | inactive |
| CG8260 | DRSC20098 | 36.4 | 13.5 | 6026 | 5475 | inactive |
| CG43102 | DRSC14797 | 2.3 | 7.02 | 6740 | 6563 | inactive |
| CG43102 | DRSC16239 | 2.19 | 0.99 | 6674 | 6548 | inactive |
| CG43102 | DRSC28809 | 22.6 | 16.2 | 6185 | 5428 | inactive |
| CG17002 | DRSC04978 | 15.4 | 16.9 | 6813 | 1074 | inactive |
| CG17002 | DRSC27573 | 32.4 | 15.4 | 5744 | 5642 | inactive |
| CG15322 | DRSC20680 | 1.17 | 0.74 | 4878 | 4451 | inactive |
| CG15322 | DRSC23023 | 1.58 | 15.4 | 6187 | 6955 | inactive |
| mRpS9 (mitochondrial ribosomal protein S9) | DRSC12645 | 3.95 | 3.27 | 5371 | 4954 | inactive |
| mRpS9 (mitochondrial ribosomal protein S9) | DRSC15456 | 28.9 | 22.4 | 5385 | 4368 | inactive |
| CG8701 | DRSC07237 | 8.73 | 8.24 | 6291 | 6240 | inactive |
| Menl-2 + Menl-1 | DRSC07469 | 41.5 | 22.1 | 5333 | 5913 | inactive |
| Menl-2 + Menl-1 | DRSC07470 | 19 | 5.64 | 5500 | 6068 | inactive |
| Menl-2 + Menl-1 | DRSC29015 | – | 16.6 | 416 | 4918 | inactive |
| l(1)G0004 (lethal (1) G0004) | DRSC20486 | 3.27 | 2.59 | 5840 | 5937 | inactive |
| CG16753 | DRSC08489 | 16 | 12.2 | 5512 | 2844 | inactive |

Entries listed so far whose target name starts with S or s (2):
| gene | amplicon | infection score, replicate 1 | infection score, replicate 2 | cell count, replicate 1 | cell count, replicate 2 | outcome |
| --- | --- | --- | --- | --- | --- | --- |
| SmD2 (Small ribonucleoprotein particle protein SmD2) | DRSC12536 | 9.56 | 28.9 | 837 | 2027 | inactive |
| SmD2 (Small ribonucleoprotein particle protein SmD2) | DRSC28703 | 2.83 | – | 1025 | 403 | inactive |

The listing continues.
| gene | amplicon | infection score, replicate 1 | infection score, replicate 2 | cell count, replicate 1 | cell count, replicate 2 | outcome |
| --- | --- | --- | --- | --- | --- | --- |
| Gbeta13F (G protein beta subunit 13F) | DRSC20247 | 5.07 | 2 | 5778 | 5886 | inactive |
| Nna1 (Nna1 carboxypeptidase) | DRSC19404 | 12.8 | 2.07 | 6285 | 6766 | inactive |
| Nna1 (Nna1 carboxypeptidase) | DRSC26989 | 13.3 | 5.58 | 6304 | 6862 | inactive |
| CG32762 | DRSC18298 | 22 | 17.6 | 5767 | 3151 | inactive |
| CG32762 | DRSC24339 | 1.21 | 5.53 | 5880 | 5586 | inactive |
| CG32809 | DRSC18507 | 7.67 | 13.4 | 6313 | 6070 | inactive |
| CG32809 | DRSC18562 | 4.52 | 7.33 | 5904 | 3058 | inactive |
| CG32809 | DRSC18592 | – | 1.71 | 47 | 6359 | inactive |
| CG31661 | DRSC00296 | 2.81 | 3.12 | 6486 | 5742 | inactive |
| CG31661 | DRSC28732 | – | – | 336 | 399 | inactive |
| Lectin-galC1 (Galactose-specific C-type lectin) | DRSC03362 | 8.43 | – | 6130 | 626 | inactive |
| Gug (Grunge) | DRSC11179 | 3.23 | 4 | 6162 | 6120 | inactive |
| l(2)41Ab (lethal (2) 41Ab) | DRSC21007 | 3.24 | 8.56 | 6564 | 5341 | inactive |
| sns (sticks and stones) | DRSC07687 | 20.2 | 20.3 | 4865 | 3952 | inactive |
| sns (sticks and stones) | DRSC07688 | 17 | 6.12 | 6018 | 6519 | inactive |
| sns (sticks and stones) | DRSC07689 | 12.6 | 13.9 | 3455 | 5528 | inactive |
| sns (sticks and stones) | DRSC07691 | 6.29 | 9.8 | 6156 | 3653 | inactive |
| CG1647 | DRSC15134 | 9.23 | 2.13 | 6435 | 6541 | inactive |
| CG3502 | DRSC04381 | 24.8 | 22.1 | 6177 | 6351 | inactive |
| CG11141 | DRSC06048 | 3.54 | 10.7 | 6774 | 4784 | inactive |
| HDAC4 (Histone deacetylase 4) | DRSC19780 | 7.99 | 4.07 | 6672 | 6628 | inactive |
| HDAC4 (Histone deacetylase 4) | DRSC25237 | 1.26 | 6.24 | 6529 | 6536 | inactive |
| CG31327 | DRSC13019 | 1.11 | 2.14 | 6141 | 5784 | inactive |
| Sf3b1 (Splicing factor 3b subunit 1) | DRSC00535 | 6.84 | 5.29 | 994 | 1267 | inactive |
| Rcd-1r + CG13102 | DRSC03266 | 8.33 | 0.69 | 4537 | 6510 | inactive |
| Rrp5 (Ribosomal RNA Processing 5) | DRSC15862 | 8.66 | 1.38 | 5887 | 6461 | inactive |
| Rrp5 (Ribosomal RNA Processing 5) | DRSC29039 | – | – | 410 | 305 | inactive |
| CG42568 + DnaJ-60 | DRSC04207 | 12.3 | 6.49 | 5936 | 6179 | inactive |
| CG42568 + DnaJ-60 | DRSC04611 | 28.3 | 18.7 | 5823 | 6145 | inactive |
| CG42568 + DnaJ-60 | DRSC27072 | 9.62 | 2.45 | 6030 | 6572 | inactive |
